# Reference: patent US20140127158A1, “COMBINATION THERAPY FOR HEPATITIS C VIRUS INFECTION” (National Health Research Institute, priority 2012, published 2014)
# What was measured:
# [1] = test system: HCV genotype 1b Con1 replicon cells; test: Isolation of resistant replicons, genotype 1b; type: cell-based, Hepatitis C virus
# [2] = test system: HCV genotype 2a JFH1 replicon cells; test: Isolation of resistant replicons, genotype 2a; type: cell-based, Hepatitis C virus
compound,measurement,setting,value
O=C(N[C@@H](C(=O)N1CCC[C@H]1c1ncc(-c2ccc(-c3ccc(-c4cnc([C@@H]5CCCN5C(=O)[C@H](NC(=O)C5CC5)c5ccccc5)s4)cc3)cc2)s1)c1ccccc1)C1CC1 [DBPR110],frequency of NS5A mutation M202L in resistant clones,[1]; 0.2 nM DBPR110 selection,47%
same,frequency of NS5A mutation M265V in resistant clones,[1]; 0.2 nM DBPR110 selection,40%
same,frequency of NS5A mutation P58L/T in resistant clones,[1]; 0.2 nM DBPR110 selection,20%
same,frequency of NS5A mutation V153M in resistant clones,[1]; 0.2 nM DBPR110 selection,53%
same,frequency of NS5A mutation Y93N/H in resistant clones,[1]; 0.2 nM DBPR110 selection,73%
same,"cDNA clones containing Y93N, V153M, M202L, and M265V",[1]; 200 nM DBPR110 selection,100%
same,frequency of NS5A mutation P58L in resistant clones,[2]; 60 nM DBPR110 selection,50%
same,frequency of NS5A mutation T24A in resistant clones,[2]; 60 nM DBPR110 selection,50%
same,cDNA clones containing only the mutation Y93H,[2]; 1 μM DBPR110 selection,100%
